Measurements reported in ChEMBL document CHEMBL3045109, “Inhibitory effect of bionic fungicide 2-allylphenol on Botrytis cinerea (Pers. ex Fr.) in vitro” (Pest Manag Sci, 2009).
Active and inactive are the calls of the source. No cut-off for these calls is given here.

Tests used:
Pyricularia grisea [1] = experiment: Induction of cyanide-resistant respiration in Magnaporthe grisea mycelium assessed as recovery of rate of oxygen consumption at 100 mg/L after 3 to 36 hr by oxygen electrode recording analysis
Pyricularia grisea [2] = experiment: Induction of cyanide-resistant respiration in Magnaporthe grisea mycelium assessed as recovery of rate of oxygen consumption at 100 mg/L by oxygen electrode recording analysis in presence of 1 mM cytochrome-C oxidase inhibitor, KCN
Pyricularia grisea [3] = experiment: Induction of cyanide-resistant respiration in Magnaporthe grisea mycelium assessed as rate of oxygen consumption at 100 mg/L by oxygen electrode recording analysis in presence of 2 mM mitochondrial alternative oxidase inhibitor, SHAM
Pyricularia grisea [4] = experiment: Induction of cyanide-resistant respiration in Magnaporthe grisea mycelium assessed as recovery of rate of oxygen consumption at 10 uM by oxygen electrode recording analysis

| SMILES | Activity (Pyricularia grisea [1]) | Activity (Pyricularia grisea [2]) | Activity (Pyricularia grisea [3]) | Activity (Pyricularia grisea [4]) |
| --- | --- | --- | --- | --- |
| C=CCc1ccccc1O [2-ALLYLPHENOL] | Active | Active | inactive |  |
| CCCCCC[C@H]1C(=O)O[C@H](C)[C@H](NC(=O)c2cccc(NC=O)c2O)C(=O)O[C@@H](C)[C@@H]1OC(=O)CC(C)C [ANTIMYCIN A] |  |  |  | Active |
